Anti-infective test results gathered from many reports (values: NIAID ChemDB through PubChem).

Shared fields: tests in culture; agent: Hepatitis C virus; endpoint: EC50

Neighbouring rows are from separate reports. An empty or dashed field is not shown. Two numbers with a dash give a range or band. ECn is the concentration giving n% inhibition of infection, replication or growth.

structure,strain or isolate,changes,cells,read by,result
Nc1ncnc2c1c(-c1cccs1)cn2[C@@H]1O[C@H](CO)[C@@H](O)[C@H]1F,1b,-,HCV replicon,replicon,1.99 µM
C=C1CC[C@@](C)([C@H](C)C[C@@H]2C=C(C)C(=O)O2)[C@@]12CCC1=C2CC[C@H]2C(C)(C)C(=O)CC[C@]12C,Jc1,-,n4mBid cells,ATP,>100 µM
O=C(N[C@@H](C(=O)N1CCC[C@H]1c1ncc(-c2ccc(-c3ccc(-c4cnc([C@@H]5CCCN5C(=O)[C@H](NC(=O)C5CC5)c5ccccc5)s4)cc3)cc2)s1)c1ccccc1)C1CC1,genotype 1b,Y93H,Huh7.5,luciferase / reporter gene,0.001408 µM
CNC(=O)c1c(-c2ccc(F)cc2)oc2cc(N3CCOCC3)c(OC)cc12,-,-,Huh7,replicon,<1 µM
NC(=S)Nc1cccc(OCCCCCOc2ccc(C(=O)Oc3ccccc3)cc2)c1,-,-,Ava5-EG(delta4AB)SEAP,reporter gene / fluorescence,0.001–1 µM
Nc1ncnc2c1c(-c1ccoc1)cn2[C@H]1O[C@H](CO)[C@@H](O)C1(F)F,2a,-,HCV replicon,replicon,14.45 µM
CNC(=O)c1c(-c2ccc(F)cc2)oc2cc(-c3cncnc3)c(OC(C)C)cc12,-,-,Huh7,replicon,<10 µM
CC(c1cc(-c2ccc(C(F)(F)F)cc2C(F)(F)F)no1)[n+]1cc2[nH]c(-c3cccc(F)c3F)nc2cn1,genotype 1b,-,Huh-luc/neo-ET,replicon,0.077 µM
Nc1c(Cl)ncnc1NC1C[C@H]2C[C@@H]1c1ccsc12,1b,-,Huh,replicon,38 µM
CC1CCC(C(=O)N(c2cc(-c3ccc(NC(=O)c4cccc(F)c4)cc3)sc2C(=O)O)C(C)C)CC1,1b,-,-,replicon,<0.5 µM
Nc1ncnc2c1c(-c1ccco1)cn2[C@H]1O[C@H](CO)[C@@H](O)C1(F)F,2a,-,HCV replicon,replicon,13.76 µM
COC(=O)N[C@H](C(=O)N1CCC[C@H]1c1ncc(-c2ccc(-c3ccc(-c4cnc([C@@H]5CCCN5C(=O)[C@@H](NC(=O)OC)C(C)C)[nH]4)cc3)cc2)[nH]1)C(C)C,1b,Y93N,ET,luciferase,0.000509 µM
Clc1ncnc2c1ncn2C1C[C@H]2C[C@@H]1[C@@H]1CSC[C@H]21,1b,-,Huh,replicon,10 µM
CC(C)N1CCN(S(=O)(=O)c2cc(-c3ccc4nc(NCc5ccc(S(N)(=O)=O)cc5)nc(NCC(F)(F)F)c4n3)ccc2Cl)CC1,-,-,-,replicon,<0.1 µM
CNC(=O)c1c(-c2ccc(F)cc2)oc2cc(-c3cc(C)[nH]n3)c(OC(C)C)cc12,-,-,Huh7,replicon,<10 µM
NC(=S)Nc1cccc(OCCCOc2cccc3ccccc23)c1,-,-,Ava5-EG(delta4AB)SEAP,reporter gene / fluorescence,0.001–1 µM
CCOC(C)(C)[C@@H](O)CC[C@@H](C)[C@H]1CC[C@@]2(C)[C@@H]3CC[C@H]4C(C)(C)[C@@H](O)CC[C@]4(C)C3=CC[C@]12C,Jc1,-,n4mBid cells,ATP,>100 µM
S=C(NCCCc1ccccc1)Nc1ccc2c(c1)Cc1cc(Br)ccc1-2,-,-,Ava5-EG(delta4AB)SEAP,reporter gene / fluorescence,0.001–1 µM
CCCOc1ccc(-c2cc(C(C(=O)OCCCO)[n+]3cc4[nH]c(-c5cccc(F)c5F)nc4cn3)on2)c(C(F)(F)F)c1,Genotype 1A,-,Huh-luc/neo-ET,replicon,0.02371 µM
CCOc1nc(NCc2ccc(S(N)(=O)=O)cc2)nc2ccc(-c3ccc(NC(=O)NCCN4CCOCC4)cc3)nc12,-,-,-,replicon,<0.1 µM
NC(=S)Nc1cccc(OCCCCCOc2ccc(C(=O)O)cc2)c1,-,-,Ava5-EG(delta4AB)SEAP,reporter gene / fluorescence,0.001–1 µM
Fc1cccc(-c2nc3cnn(Cc4cn(-c5ccc(C(F)(F)F)cc5C(F)(F)F)cn4)cc-3n2)c1F,genotype 1b,-,Huh-luc/neo-ET,replicon,7.47 µM
NS(=O)(=O)c1ccc(CNc2nc(NCC(F)(F)F)c3nc(-c4ccc(F)cc4)ccc3n2)c(F)c1,-,-,-,replicon,<0.1 µM
S=C(NCCc1ccccc1)Nc1cccc(OCCCCCc2ccccc2)c1,-,-,Ava5-EG(delta4AB)SEAP,reporter gene / fluorescence,0.001–1 µM
Fc1ccc(-c2ccc3nc(NCCn4cncn4)nc(NCC(F)(F)F)c3n2)cc1,-,-,-,replicon,<0.1 µM
Fc1cccc(-c2nc3cnn(Cc4ccc(-c5ccc(C(F)(F)F)cc5C(F)(F)F)cn4)cc-3n2)c1F,genotype 1b,-,Huh-luc/neo-ET,replicon,0.036 µM
Clc1ncnc2c1ncn2C1C[C@H]2C[C@@H]1[C@H]1CSC[C@@H]21,1b,-,Huh,replicon,9 µM
CCOc1nc(NCc2ccc(S(N)(=O)=O)cc2)nc2ccc(-c3ccc(C(=O)NC4(C#N)CC4)cc3)nc12,-,-,-,replicon,<0.1 µM
Nc1ncnc2c1c(-c1ccco1)cn2[C@@H]1O[C@H](CO)[C@@H](O)[C@H]1F,1a,-,HCV replicon,replicon,1.98 µM
COC(=O)N[C@H](C(=O)N1CC2(CC2)C[C@H]1c1ncc(-c2ccc3c(c2)C(F)(F)c2cc(-c4ccc5nc([C@@H]6[C@H]7CC[C@H](C7)N6C(=O)[C@@H](NC(=O)OC)C(C)C)[nH]c5c4)ccc2-3)[nH]1)C(C)C,Genotype 1A,-,HCV replicon cells,replicon,0.000034 µM
COc1ccc(-c2cc(C[n+]3cc4[nH]c(-c5cccc(F)c5F)nc4cn3)on2)cc1,genotype 1b,-,Huh-luc/neo-ET,replicon,0.093 µM
CC1CCC(C(=O)N(c2cc(-c3ccc(NC(=O)c4cn[nH]c4)cc3)sc2C(=O)O)C(C)C)CC1,1a,-,-,replicon,>0.5 µM
CC1(C)CC(=O)C2=C(C1)Nc1c(O)cccc1NC2c1ccc(OCc2cccc(Br)c2)cc1Cl,1b,-,-,luciferase / reporter gene / replicon,3.29 µM
CNC(=O)c1c(-c2ccc(F)cc2)oc2cc(N(Cc3csc(C)n3)S(C)(=O)=O)c(OC(C)C)cc12,-,-,Huh7,replicon,<10 µM
COc1ccc(C(=O)N2c3cccc(O)c3NC3=C(C(=O)CC(C)(C)C3)[C@@H]2c2ccc(OCc3ccccc3)cc2F)nc1Br,1b,-,-,luciferase / reporter gene / replicon,1.14 µM
C[C@H](CC[C@H](O)C(C)(C)O)[C@H]1CC[C@@]2(C)[C@@H]3CC[C@H]4C(C)(C)C(=O)CC[C@]4(C)C3=CC[C@]12C,Jc1,-,n4mBid cells,ATP,2.67 µM
Nc1ncnc2c1c(I)cn2[C@H]1O[C@H](CO)[C@@H](O)C1(F)F,1b,-,HCV replicon,replicon,0.7 µM
CC(C)C(=O)N1c2cccc(O)c2NC2=C(C(=O)CC(C)(C)C2)C1c1ccc(OCc2ccccc2F)cc1F,1b,-,-,luciferase / reporter gene / replicon,1.43 µM
Cc1nc(C)c(C(=O)Nc2ccc(-c3cc(N(C(=O)C4CCC(C)CC4)C(C)C)c(C(=O)O)s3)cc2)o1,1a,-,-,replicon,>0.5 µM
CC(C)C(=O)N1c2cccc(O)c2NC2=C(C(=O)CC(C)(C)C2)C1c1cc(Cl)c(Oc2ccccc2Br)s1,1b,-,-,luciferase / reporter gene / replicon,1.81 µM
CCOc1nc(NCc2ccc(S(N)(=O)=O)cc2)nc2ccc(-c3ccc(NC(=O)C(N)CO)cc3)nc12,-,-,-,replicon,<0.1 µM
COc1ccc(-c2ccccc2OCCCCCOc2cccc(NC(N)=S)c2)cc1,-,-,Ava5-EG(delta4AB)SEAP,reporter gene / fluorescence,0.001–1 µM
O=C(N[C@@H](C(=O)N1CCC[C@H]1C(=O)Nc1nc(-c2ccccc2)cs1)c1ccccc1)C1CC1,genotype 2a infectious HCV,-,JFH1,luciferase,0.1756 µM
CCCCCCCCCCCCCCOC(=O)NC(CCC(=O)O)(CCC(=O)O)CCC(=O)O,1a,-,Huh7-SG1a H77,replicon / PCR,0.0284 µM
NC(=S)Nc1cccc(OCCCCCCCc2ccccc2)c1,-,-,Ava5-EG(delta4AB)SEAP,reporter gene / fluorescence,0.001–1 µM
CCOc1nc(NCc2ccc(F)cc2)nc2ccc(-c3cccc(NS(C)(=O)=O)c3)nc12,-,-,-,replicon,<0.1 µM
CCOCc1cc(-c2cc3oc(-c4ccc(F)cc4)c(C(=O)NC)c3cc2OC)no1,-,-,Huh7,replicon,<1 µM
CCCCn1c(=O)c2ccccc2c2cc(C(O)(C(F)(F)F)C(F)(F)F)c3c(c21)OCO3,1b,-,#50-1,PCR,0.97 µM
CC(C)(C)OC(=O)NC1CCN(S(=O)(=O)c2cc(-c3ccc4nc(NCc5ccc(S(N)(=O)=O)cc5)nc(NCC(F)(F)F)c4n3)ccc2Cl)CC1,-,-,-,replicon,<0.1 µM
NC(=S)Nc1cccc(OCCCCCOc2ccncn2)c1,-,-,Ava5-EG(delta4AB)SEAP,reporter gene / fluorescence,0.001–1 µM
Cc1cc(-c2cc(N(C(=O)C3CCC(C)CC3)C(C)C)c(C(=O)O)s2)cnc1NC(=O)c1ccc(F)cc1,1b,-,-,replicon,<0.5 µM
CNC(=O)c1c(-c2ccc(F)cc2)oc2cc(N(CS(C)(=O)=O)c3cscn3)c(OC(C)C)cc12,-,-,Huh7,replicon,<1 µM
C[C@H](CCC(=O)C(C)(C)O)[C@H]1CC[C@@]2(C)[C@@H]3CC[C@H]4C(C)(C)[C@H](O)CC[C@]4(C)C3=CC[C@]12C,Jc1,-,n4mBid cells,ATP,>100 µM
Nc1ncnc2c1c(-c1ccsc1)cn2[C@@H]1O[C@H](CO)[C@@H](O)[C@H]1F,1a,-,HCV replicon,replicon,6.52 µM
CC1CCC(C(=O)N(c2cc(-c3ccc(NC(=O)c4cscn4)cc3)sc2C(=O)[O-])C(C)C)CC1.NC(CCCC[NH3+])C(=O)O,1a,-,-,replicon,<0.5 µM

4 of the rows above, restated:

structure	strain or isolate	changes	cells	read by	result
CNC(=O)c1c(-c2ccc(F)cc2)oc2cc(-c3cc(C)[nH]n3)c(OC(C)C)cc12	-	-	Huh7	replicon	<10 µM
CC(C)C(=O)N1c2cccc(O)c2NC2=C(C(=O)CC(C)(C)C2)C1c1ccc(OCc2ccccc2F)cc1F	1b	-	-	luciferase / reporter gene / replicon	1.43 µM
NC(=S)Nc1cccc(OCCCOc2cccc3ccccc23)c1	-	-	Ava5-EG(delta4AB)SEAP	reporter gene / fluorescence	0.001–1 µM
CC(c1cc(-c2ccc(C(F)(F)F)cc2C(F)(F)F)no1)[n+]1cc2[nH]c(-c3cccc(F)c3F)nc2cn1	genotype 1b	-	Huh-luc/neo-ET	replicon	0.077 µM